Compound potency records, mixed from different reports. Data source: NIAID ChemDB in PubChem.

Common to all: tests in culture; organism: HIV-1; read by: cytopathic effect; measure: EC50

ECn is the concentration giving n% inhibition of infection, replication or growth.

smiles	strain	mutations	cells	value
S=C(NCCc1ccccc1)Nc1ccccn1	IIIB		MT-4	0.78 µM
COc1ccc(CN[C@@H](C(=O)N[C@H](C(=O)NCc2nc3ccccc3[nH]2)C(C)C)[C@H](O)[C@H](Cc2ccccc2)NC(=O)[C@@H](NC(=O)CCc2ccc(O)cc2)C(C)(C)C)cc1	IIIB		MT-4	0.039 µM
Cc1cn([C@H]2C[C@H](N=[N+]=[N-])[C@@H](CO)O2)c(=O)[nH]c1=O	J-2 (RT-Y181C)	RT-Y181C	CEM	0.015 µM
COc1ccc(CN[C@@H](C(=O)N[C@H](C(=O)NCc2nc3ccccc3[nH]2)C(C)C)[C@H](O)[C@H](Cc2ccccc2)NC(=O)[C@@H](NC(=O)[C@@](C)(O)c2ccccc2)C(C)(C)C)cc1	IIIB		MT-4	0.038 µM
CCCCCCCSc1nsc(NC(=O)Nc2ccccc2)n1	IIIB		MT-4	8.9 µM
COc1ccc(Br)cc1CCNC(=S)Nc1nccs1	IIIB		MT-4	0.1 µM
O=c1[nH]cnc2c1ncn2[C@H]1CC[C@@H](CO)O1	LZ-05.95		MT-4	15.7 µM
CCOCn1c(Cc2ccccc2)c(C(C)C)c(=O)[nH]c1=O	E-2 (RT-V106A)	RT-V106A	CEM	0.015 µg/mL
Cc1ccnc(N2C(=O)CSC2c2c(Cl)cccc2Cl)n1		RT-Y188H	CEM	7.35 µM
Cc1cn([C@H]2C[C@H](F)[C@@H](CO)O2)c(=O)[nH]c1=S	IIIB		MT-4	1 µM
COc1cccc(F)c1CCNC(=S)Nc1nccs1	IIIB		MT-4	0.32 µM
Cc1c(Sc2ccccc2)n(COCCO)c(=S)[nH]c1=O			MT-4	1.6 µM
CCSCCCCCCCCCCC(=O)OC[C@H]1O[C@@H](n2cc(C)c(=O)[nH]c2=O)C[C@@H]1F			CEM + CEM-SS	0.006 µM
Nc1ncnc2c1ncn2[C@]1(c2ccccc2)C[C@@H]1CO			MT-4	>100 µM
Cc1cn([C@H]2C[C@H](N=[N+]=[N-])[C@@H](CO)O2)c(=O)[nH]c1=O			MT-4	0.7 µM
CSC[C@H](NC(=O)COc1cccc2cnccc12)C(=O)N[C@@H](Cc1ccccc1)[C@H](O)C(=O)N1CSC(C)(C)[C@H]1C(=O)NC(C)(C)C	LAI		ATH8	0.1 µM
O=c1ccn([C@]2(c3ccccc3)C[C@@H]2COCP(=O)(O)O)c(=O)[nH]1			MT-4	>100 µM
Cc1cn([C@H]2C=C[C@@H](COP(=O)(O)OCc3ccccc3)O2)c(=O)[nH]c1=O			MT-4	0.034 µM
Fc1cccc(F)c1C1SCc2nc3ccccc3n21	IIIB		MT-4	0.6 µM
CC(C)=CCC[C@]1(C)C=Cc2c(ccc3c2C(=O)C(O)=C(C2=C(C4=C(O)C(=O)c5c(ccc6c5C=C[C@@](C)(CCC=C(C)C)O6)C4=O)C(=O)c4c(ccc5c4C=C[C@@](C)(CCC=C(C)C)O5)C2=O)C3=O)O1	RF		CEM + CEM-SS	<20 µM
Nc1ncnc2c1ncn2[C@@H]1C[C@](F)(CO)[C@H]1CO	IIIB		MT-4	3.73 µM
Cc1cn([C@H]2C=C[C@@H](CO)O2)c(=O)[nH]c1=O	FO-08.96 (HXB2 RT F77L F116Y Q151M)	RT-F77L F116Y Q151M	MT-4	>10 µM
Cc1cc(C)nc(N2C(=O)CSC2c2c(Cl)cccc2Cl)n1	IIIB		CEM	0.025 µM
Cc1ccc(NC(=S)NCCc2ccccc2)nc1	IIIB		MT-4	0.17 µM
Cc1ccnc2c1NC(=O)c1cccnc1N2C1CC1	Y-1 (RT-K103N)	RT-K103N	CEM	2.35 µg/mL
COc1ccc(CN[C@@H](C(=O)N[C@H](C(=O)NCc2nc3ccccc3[nH]2)C(C)C)[C@H](O)[C@H](Cc2ccccc2)NC(=O)[C@@H](NC(=O)OCc2ccccc2)C(C)(C)C)cc1	IIIB		MT-4	0.012 µM
COCCCCCCCCCCCC(=O)OC[C@H]1O[C@@H](n2cc(C)c(=O)[nH]c2=O)C[C@@H]1F			CEM + CEM-SS	0.0038 µM
Fc1cccc(F)c1C1SCc2nc3ccccc3n21		RT-Y188H	CEM	4.16 µM
CCNC(=O)c1cnnn1C1OC(CO[Si](C)(C)C(C)(C)C)C2(OS(=O)(=O)C=C2N)C1O[Si](C)(C)C(C)(C)C	IIIB		MT-4	0.17 µM
Nc1ccn(C[C@@H](CO)OCP(=O)(O)O)c(=O)n1	IIIB		MT-2	1 µM
CCOc1nc(N)nc2c1ncn2[C@H]1C[C@H](N=[N+]=[N-])[C@@H](CO)O1	IIIB		MT-4	23 µM
CCN(C)C(=O)c1cnnn1C1OC(CO[Si](C)(C)C(C)(C)C)C2(OS(=O)(=O)C=C2N)C1O[Si](C)(C)C(C)(C)C	IIIB		CEM	0.33 µM
O=c1ccn([C@]2(c3ccccc3)C[C@@H]2CO)c(=O)[nH]1			MT-4	>100 µM
CCC(CCC(C)C1CCC2C3C[C@@H](O)[C@@]4(O)C[C@@H](O)CCC4(C)C3CCC12C)C(C)C			MT-4	9.38 µg/mL
CC1=C(C)C(CO)(CO)C[C@H]1n1cnc2c(N)ncnc21			MT-4	>100 µg/mL
CCc1c(Sc2ccccc2)n(COCCO)c(=O)[nH]c1=O			MT-4	0.12 µM
Cc1ccnc2c1NC(=O)c1cccnc1N2C1CC1	IIIB		MT-4	0.048 µM
Cc1ccnc2c1NC(=O)c1cccnc1N2C1CC1		RT-K103N	CEM	3.04 µM
Cc1cn([C@H]2C[C@H](N=[N+]=[N-])[C@@H](CO)O2)c(=O)[nH]c1=O			CEM + CEM-SS	0.01 µM
Cc1c(Sc2ccccc2)n(COCCO)c(=O)[nH]c1=O			MT-4	6.5 µM
COc1ccc(S(=O)(=O)N(CC(C)C)CC(O)C(NC(=O)O[C@H]2CCOC2)Sc2ccccc2)cc1	BRU		MT-4	0.1–1 µM
[N-]=[N+]=N[C@H]1C[C@H](n2cnc3c(NC4CCC4)nc(N)nc32)O[C@@H]1CO	IIIB		MT-4	14 µM
CC(C)(C)[Si](C)(C)OCC1OC(n2nncc2C(=O)NC2CCC2)C(O[Si](C)(C)C(C)(C)C)C12OS(=O)(=O)C=C2N	IIIB		CEM	0.21 µM
Nc1ccn([C@]2(c3ccccc3)C[C@@H]2COCP(=O)(O)O)c(=O)n1			MT-4	48.2 µM
COc1nc(=O)[nH]c2c1C(c1ccc(Cl)cc1)c1c(OC)nc(=O)[nH]c1O2	L1		MT-4	>347 µM
[N-]=[N+]=N[C@H]1C[C@H](n2cnc3c(NCc4ccccc4)nc(N)nc32)O[C@@H]1CO	IIIB		MT-4	>200 µM
Cc1ccnc2c1NC(=O)c1cccnc1N2C1CC1	NL4-3	RT A62V 69SS K70R E79K V118I M184V E203K L210W T215Y	MT-4	0.01 µM
O=c1[nH]cnc2c1ncn2[C@H]1CC[C@@H](CO)O1	IIIB		MT-4	13.3 µM
CC(C)NC(=O)c1cnnn1C1OC(CO[Si](C)(C)C(C)(C)C)C2(OS(=O)(=O)C=C2N)C1O[Si](C)(C)C(C)(C)C	IIIB		MT-4	0.72 µM
NC(=O)c1ncn([C@H]2O[C@@H](COP(=O)(O)OC[C@@H]3C=C[C@H](n4cnc5c(=O)[nH]cnc54)O3)[C@H](O)[C@@H]2O)n1	IIIB		MT-4	>17.5 µM
Fc1cccc(F)c1CCNC(=S)Nc1ccccn1	IIIB		MT-4	0.01 µM
Cc1cn([C@H]2C[C@H](F)[C@@H](CO)O2)c(=O)[nH]c1=O			CEM + CEM-SS	0.0025 µM
Fc1cccc(F)c1CCNC(=S)Nc1ccc(Cl)cn1	IIIB		MT-4	0.002 µM
Cc1cn([C@H]2C[C@H](N=[N+]=[N-])[C@@H](COP(=O)(O)OCc3ccccc3)O2)c(=O)[nH]c1=O			CEM + CEM TK-	>100 µM

Neighbouring rows are from separate reports. Blank or dashed fields: not listed here. a–b is a range or a potency band.